## Sequence variants of PSTVd loop 6 after infection

Region: loop 6 of PSTVd (intermediate strain), upper and lower strand joined, each 5' to 3', the first 5 letters being the upper strand, closing pairs included. Wild type: UGACCGCGAG. Varied positions (N): UNNNCGNNNG.

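Three N. benthamiana plants were inoculated with the whole mutant pool. Progeny were sequenced from the inoculated region (day 5), the margin of the inoculated leaf (day 10) and systemic leaves (day 12).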

Values are reads per thousand in the sample; higher means more abundant, 0 means not found. Each site shows the three plants. "Pool" is the share in the plasmid pool used as inoculum, on the same scale. The inoculated region was read from the minus strand, the other sites from the plus strand. With 36,220-57,551 reads a sample, very low values are single reads.

{"sequence": "UGACCGAUUG", "pool": "0.536", "inoculated region": "0.313 0.287 0.221", "leaf margin": "0.138 0.202 0.232", "systemic leaves": "0.126 0.364 1.03"}
{"sequence": "UGACCGCAAG", "pool": "0.0131", "inoculated region": "16.7 18.9 54.0", "leaf margin": "30.0 1.92 59.2", "systemic leaves": "14.5 43.0 24.3"}
{"sequence": "UGACCGCACG", "pool": "0.235", "inoculated region": "0.0869 0.108 0.369", "leaf margin": "0.248 0.177 0.0232", "systemic leaves": "0.0539 0 0.144"}
{"sequence": "UGACCGCAGG", "pool": "0.0654", "inoculated region": "0.156 0.108 0.111", "leaf margin": "0.276 0.429 0", "systemic leaves": "0.0180 0.0606 0"}
{"sequence": "UGACCGCAUG", "pool": "0.235", "inoculated region": "0.191 0.162 0.148", "leaf margin": "0.773 0.177 0.0232", "systemic leaves": "0 0.0808 0.0615"}
{"sequence": "UGACCGCCAG", "pool": "0.0915", "inoculated region": "0.0869 0.0719 0.184", "leaf margin": "0.166 0.404 0.139", "systemic leaves": "0.0539 0.101 0.144"}
{"sequence": "UGACCGCCCG", "pool": "0.392", "inoculated region": "0.191 0.234 0.166", "leaf margin": "0.276 0 0.232", "systemic leaves": "0.0539 0.0606 0.595"}
{"sequence": "UGACCGCCGG", "pool": "0.196", "inoculated region": "0.104 0.108 0.129", "leaf margin": "0.387 0.277 0.0464", "systemic leaves": "0.0719 0.0202 0.123"}
{"sequence": "UGACCGCCUG", "pool": "0.314", "inoculated region": "0.295 0.234 0.111", "leaf margin": "0.304 29.9 0.278", "systemic leaves": "0.0359 0.0606 0.492"}
{"sequence": "UGACCGCGAA", "pool": "0.0131", "inoculated region": "0.0869 0.162 0.0922", "leaf margin": "23.8 1.41 0.139", "systemic leaves": "0.323 0.566 0.759"}
{"sequence": "UGACCGCGAG", "pool": "20.7", "inoculated region": "195 198 203", "leaf margin": "629 591 734", "systemic leaves": "942 870 868"}
{"sequence": "UGACCGCGAU", "pool": "0.0131", "inoculated region": "0.226 0.234 0.443", "leaf margin": "0.883 1.82 0.719", "systemic leaves": "0.952 0.969 1.15"}
{"sequence": "UGACCGCGCG", "pool": "0.144", "inoculated region": "0.226 0.198 0.277", "leaf margin": "0.248 0.580 0.162", "systemic leaves": "0.234 0.141 0.287"}
{"sequence": "UGACCGCGGG", "pool": "0.248", "inoculated region": "0.313 0.341 0.369", "leaf margin": "0.745 1.01 0.975", "systemic leaves": "0.162 0.263 0.328"}
{"sequence": "UGACCGCGUG", "pool": "0.105", "inoculated region": "0.712 0.557 0.479", "leaf margin": "0.304 19.6 1.11", "systemic leaves": "1.28 0.808 1.54"}
{"sequence": "UGACCGCUAG", "pool": "0.0784", "inoculated region": "0.330 0.162 0.258", "leaf margin": "0.387 0.706 0.418", "systemic leaves": "0.701 0.323 0.820"}
{"sequence": "UGACCGCUCG", "pool": "0.196", "inoculated region": "0.382 0.162 0.166", "leaf margin": "0.387 0.530 0.0696", "systemic leaves": "0.0539 0.0404 0.574"}
{"sequence": "UGACCGCUGG", "pool": "0.0915", "inoculated region": "0.0869 0.108 0.0553", "leaf margin": "0.580 0.0504 0", "systemic leaves": "0 0 0.0205"}
{"sequence": "UGACCGCUUG", "pool": "0.471", "inoculated region": "0.226 0.359 0.258", "leaf margin": "0.883 0.807 0.394", "systemic leaves": "0.341 0.0202 0.349"}
{"sequence": "UGACCGGAAG", "pool": "0.0131", "inoculated region": "0.122 0.0719 0.0738", "leaf margin": "0.248 0.277 0", "systemic leaves": "0 0 0.0205"}
{"sequence": "UGACCGGACG", "pool": "0.327", "inoculated region": "0.104 0.180 0.184", "leaf margin": "0.248 0.353 0.0696", "systemic leaves": "0.0180 0.101 0.123"}
{"sequence": "UGACCGGAGG", "pool": "0.0915", "inoculated region": "0.156 0.198 0.0738", "leaf margin": "0.359 0 0.0232", "systemic leaves": "0 0 0.0820"}
{"sequence": "UGACCGGAUG", "pool": "0.471", "inoculated region": "0.295 0.162 0.129", "leaf margin": "0.580 0.151 0.0232", "systemic leaves": "0.0180 0.0404 0.595"}

Sequences that differ at fixed positions probably stem from PCR or sequencing errors, and defective variants can be carried along by functional ones. For reference, wild type rose from 20.7 per thousand in the pool to 195, 198, 203 (inoculated region), 629, 591, 734 (leaf margin) and 942, 870, 868 (systemic leaves).

From the data files of Wu et al. 2024, doi:10.1371/journal.ppat.1012142.